Pooled drug test results. Numbers come from NIAID ChemDB, via PubChem.

All rows: enzyme or target tests; organism: Human cytomegalovirus; measure: IC50

ICn is the concentration giving n% inhibition. An empty or dashed field is not shown. Neighbouring rows are from separate reports.

SMILES,protein,strain or isolate,read by,result
O=C(Nc1nnc(NC2CCCc3ccccc32)s1)c1cc(F)cc(F)c1,Polymerase,-,-,>25 µM
Cc1nc2nncnn2c(=O)c1C,Protease,-,-,0.3 µM
CCCCCCCCCC(C(=O)O)P(=O)(O)O,DNA polymerase,-,-,1.5 µM
CCCCCc1cc(O)cc(O)c1C(=O)Oc1cc(O)c(C(=O)Oc2cc(O)c(C(=O)O)c(CCC)c2)c(CCC)c1,HCMV protease,-,scintillation proximity / radiometric,43 µM
O=C(Nc1nnc(NCCc2cccs2)s1)c1cccc([N+](=O)[O-])c1,Polymerase,-,-,>25 µM
N#CCCn1c2ccccc2c2c3c(c4c5ccccc5[nH]c4c21)C(=O)NC3,HCMV protein kinase pUL97,-,-,0.0428 µM
O=P(O)(O)CP(=O)(O)O,DNA polymerase,-,-,>500 µM
CCCCCC(=O)N[C@@H](CCCC)C(=O)N[C@@H](CC(=O)N(C)C)C(=O)NC(C)C(=O)C(=O)NCc1ccccc1,Protease,-,-,0.2 µM
CCCC(C(=O)O)P(=O)(O)O,DNA polymerase,-,-,30 µM
N[C@@H](CCC(=O)N[C@@H](CSSC[C@H](NC(=O)CC[C@H](N)C(=O)O)C(=O)NCC(=O)O)C(=O)NCC(=O)O)C(=O)O,Protease,-,-,300 µM
O=C(O)CP(=O)(O)O,DNA polymerase,-,-,0.4 µM
CCCCCCCC/C=C/CCCCCCCC(=O)Nc1nnc(NCc2cccnc2)s1,Polymerase,-,-,<25 µM
NC(=O)c1ccc[n+]([C@@H]2O[C@H](COP(=O)([O-])OP(=O)(O)OC[C@H]3O[C@@H](n4cnc5c(N)ncnc54)[C@H](O)[C@@H]3O)[C@@H](O)[C@H]2O)c1,Protease,-,-,>>20 µM
CC#Cc1cn([C@@H]2O[C@H](CO)[C@@H](O)[C@@H]2O)c(=O)[nH]c1=O,DNA polymerase,AD169,-,0.6 µM
CCCCCCCCCCCNc1nnc(NC(=O)/C=C/c2ccccc2Cl)s1,Polymerase,-,-,>25 µM
CC(C(=O)O)P(=O)(O)O,DNA polymerase,-,-,18 µM
N#Cc1ccc(C(=O)Nc2nnc(NCCc3cccs3)s2)cc1,Polymerase,-,-,<25 µM
O=P(O)(O)OP(=O)(O)O,DNA polymerase,-,-,500 µM

Again, the opening 2 rows:

| SMILES | protein | strain or isolate | read by | result |
|---|---|---|---|---|
| O=C(Nc1nnc(NC2CCCc3ccccc32)s1)c1cc(F)cc(F)c1 | Polymerase | - | - | >25 µM |
| Cc1nc2nncnn2c(=O)c1C | Protease | - | - | 0.3 µM |